Results from patent publication US6441132B1, “Contryphan peptides” (dated 2002).

Tested on: mice (9 to 21 days old)
Test: Bioassay by intracranial injection in mice
Conditions: highest doses (20 nmoles/g)

NC(=O)[C@@H]1CSSC[C@H](N)C(=O)N2C[C@H](O)C[C@H]2C(=O)N[C@H](Cc2c[nH]c3ccccc23)C(=O)N[C@@H](CCC(=O)O)C(=O)N2CCC[C@H]2C(=O)N[C@@H](Cc2c[nH]c3ccccc23)C(=O)N1
Lethality on i.c. injection: did not cause any lethality
